Source: patent publication US8557848B2, “4,5-ring annulated indole derivatives for treating or preventing of HCV and related viral infections” (Merck Sharp & Dohme Corp., priority 2006, dated 2013)

Legend:
[1] = molecular target: HCV NS5B polymerase (NS5BΔCT21, from HCV-Con 1 isolate, genotype 1b) (Hepatitis C virus genotype 1b, UniProt Q9WMX2); experiment: HCV NS5B Polymerase Inhibition Assay; conditions: [33P]-CTP incorporation, 22° C. for 2 hours
From the text: A chemically synthesized 75-mer version, designated DCoH75, whose sequence matches the 3′-end of D-RNA, and DCoH75ddC, where the 3′-terminal cytidine of DCoH75 is replaced by dideoxycytidine, were used for assaying the NS5B enzyme activity as described in Ferrari et al., 12th International Symposium on HCV and Related Viruses, P-306 (2005). The sequence of the template RNA was: 5′-UGUGCCGGUCUUUCUGAACGGGAUAUAAACCUGGCCAGCUUCAUCGAACAAGUUGCCGUGUCUAUGACAUAGAUC-3′. A soluble C-terminal 21-amino acid truncated NS5B enzyme form (NS5BΔCT21, from HCV-Con 1 isolate, genotype 1b, Genbank accession number AJ238799) was produced and purified from Escherichia coli as C-terminal polyhistidine-tagged fusion protein as described in Ferrari et al., J. Virol. 73:1649-1654 (1999). […] Reactions were incubated at 22° C. for 2 hours, then stopped by adding 150 mM EDTA, washed in DE81 filter plate in 0.5M di-basic sodium phosphate buffer, pH 7.0, and counted using Packard TopCount after the addition of scintillation cocktail. Polynucleotide synthesis was monitored by the incorporation of radiolabeled CTP. The effect of the Compounds of Formula (I) on the polymerase activity was evaluated by adding various concentrations of a Compound of Formula (I), typically in 10 serial 2-fold dilutions, to the assay mixture. […]

[2] = test system: HCV replicon cells (replicon RNA level); experiment: Cell-Based HCV Replicon Assay; conditions: replicon RNA level by real time PCR (Taqman), cells harvested on day 3
Method: To measure cell-based anti-HCV activity of the a Compound of Formula (I), replicon cells were seeded at 5000 cells/well in 96-well collagen I-coated Nunc plates in the presence of the Compound of Formula (I). Various concentrations of a Compound of Formula (I), typically in 10 serial 2-fold dilutions, were added to the assay mixture, with the starting concentration ranging from 250 μM to 1 μM. The final concentration of DMSO was 0.5%, fetal bovine serum was 5%, in the assay media. Cells were harvested on day 3 by the addition of 1× cell lysis buffer (Ambion cat #8721). The replicon RNA level was measured using real time PCR (Taqman assay). The amplicon was located in 5B. The PCR primers were: 5B.2F, ATGGACAGGCGCCCTGA; 5B.2R, […]; the probe sequence was FAM-labeled CACGCCATGCGCTGCGG. GAPDH RNA was used as endogenous control and was amplified in the same reaction as NS5B (multiplex PCR) using primers and VIC-labeled probe recommended by the manufacturer (PE Applied Biosystem). The real-time RT-PCR reactions were run on ABI PRISM 7900HT Sequence Detection System using the following program: 48° C. for 30 min, 95° C. for 10 min, 40 cycles of 95° C. for 15 sec, 60° C. for 1 min. […] Alternatively, to quantitate the absolute amount of replicon RNA, a standard curve was established by including serially diluted T7 transcripts of replicon RNA in the Taqman assay. […]

Structure (SMILES) | IC50 [1] | EC50 [2]
CC(C)(C)C(=O)OCn1cc(F)c(Cn2c(C(=O)O)c(-c3ccc[nH]c3=O)c3c4occc4c(F)cc32)cc1=O | < 0.025 µM | < 0.5 µM
CS(=O)(=O)NC(=O)c1c(-c2ccc[nH]c2=O)c2c3occ(Cl)c3ccc2n1Cc1ccccc1F | < 0.025 µM | < 0.5 µM
